PubChem BioAssay AID504761 | Drosophila RNAi Screening Center – 2011

- Screen: 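Insect host genes that dengue virus relies on to spread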 (primary screen)
- Cells: D.Mel-2 cells from Drosophila
- Reagent: long dsRNA against Drosophila genes
- Challenge: infection with dengue virus type 2; dose and infection time not stated
- Measurement: 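Per well on two replicate plates, imaging gave the percent of cells positive for viral envelope protein, ranked by infection, and a nuclear count of cells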
- Direction: infection score: higher = more virus-infected cells; cell count: higher = more cells in the well
- Hit rule: 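Low infection ranks in the two replicates (chance level up to 0.065) followed by a retest with a 1.5-fold or larger significant decrease, p below 0.05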
- Meaning of the calls: active = confirmed: knock-down lowers infection; inactive = not picked or not confirmed
The screen tested about 22,000 reagents; shown is a random part of those with a known target gene and a result. Of all reagents, 116 (0.52%) are marked active. 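Calls depend on retest data that are not deposited; infection was ranked per plate without normalising between plates; the unit of the infection score is not given.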 The raw values are shown without normalisation. Reagents against one gene are numbered here. Names joined by + are all predicted targets of the reagent. Reagent sequences are not shown. Not stated in the record: the amount of reagent, the time to read-out.

| target gene | dsRNA no. | infection score, replicate 1 | infection score, replicate 2 | cell count, replicate 1 | cell count, replicate 2 | outcome |
| --- | --- | --- | --- | --- | --- | --- |
| CG7006 | 1 | 6.81 | 7.62 | 6846 | 7195 | inactive |
| Gr8a | 1 | 3.52 | 5.91 | 6454 | 6651 | inactive |
| CG12071 | 1 | 1.07 | 3.06 | 6800 | 6968 | inactive |
| CG3280 (retired record) | 1 | 1.6 | 1.22 | 5704 | 6383 | inactive |
| CR42546 | 1 | 24.9 | 23.2 | 5588 | 5296 | inactive |
| MED7 | 1 | 7.49 | 14.6 | 5312 | 5676 | inactive |
| MED7 | 2 | 21.5 | 31.8 | 3974 | 4829 | inactive |
| PTP-ER | 1 | 4.82 | 29.4 | 6350 | 4997 | inactive |
| PTP-ER | 2 | 1.67 | 7.23 | 5882 | 5949 | inactive |
| PTP-ER | 3 | 22.5 | 11.1 | 5978 | 1988 | inactive |
| dpr11 | 1 | 3.53 | 5.82 | 6887 | 6953 | inactive |
| dpr11 | 2 | 4.28 | 24.7 | 6495 | 6862 | inactive |
| dpr11 | 3 | 3.3 | 5.02 | 7158 | 7033 | inactive |
| CG32568 | 1 | 6.03 | 10.1 | 6413 | 5903 | inactive |
| CG42568 + DnaJ-60 | 1 | 12.3 | 6.49 | 5936 | 6179 | inactive |
| CG42568 + DnaJ-60 | 2 | 28.3 | 18.7 | 5823 | 6145 | inactive |
| CG42568 + DnaJ-60 | 3 | 9.62 | 2.45 | 6030 | 6572 | inactive |
| CG9062 | 1 | 2.94 | 14.5 | 815 | 3681 | inactive |
| CG9062 | 2 | 11.6 | 8.92 | 6052 | 3373 | inactive |
| Obp58c | 1 | 10.9 | 12.2 | 6467 | 6724 | inactive |
| Gal | 1 | 9.98 | 18.3 | 5709 | 5824 | inactive |
| Gal | 2 | 0.34 | 5.11 | 6536 | 6043 | inactive |
| Cpr65Eb | 1 | 4.32 | 3.28 | 6185 | 5828 | inactive |
| Cpr65Eb | 2 | 8.13 | 12.2 | 6532 | 4764 | inactive |
| TTLL1A | 1 | 1.64 | 0.16 | 6589 | 6940 | inactive |
| CG13096 | 1 | 3.91 | 11 | 6495 | 5456 | inactive |
| CG31533 | 1 | 5.37 | 9.87 | 5732 | 5604 | inactive |
| cno | 1 | 1.76 | 1.31 | 6260 | 6245 | inactive |
| cno | 2 | 2.79 | 13.3 | 6664 | 5669 | inactive |
| cno | 3 | 3.14 | 1.09 | 6372 | 6120 | inactive |
| cno | 4 | 18.1 | 33.5 | 5754 | 4971 | inactive |
| CG6420 | 1 | – | – | 346 | 363 | inactive |
| CG13026 | 1 | 6.08 | 3.36 | 6416 | 6466 | inactive |
| loh | 1 | 5.8 | 0.48 | 6495 | 6253 | inactive |
| loh | 2 | 7.1 | 7.38 | 5791 | 5811 | inactive |
| Mst89B | 1 | 4.11 | 16.4 | 5818 | 5649 | inactive |
| CG13653 | 1 | 3.24 | 1.03 | 6549 | 6587 | inactive |
| Hpd | 1 | 9.19 | 28.7 | 1295 | 4488 | inactive |
| Hpd | 2 | 2.37 | 4.5 | 6589 | 6327 | inactive |
| CG1979 | 1 | 10.6 | 10.4 | 6031 | 5913 | inactive |
| CG1979 | 2 | 6.01 | 2.99 | 6058 | 5727 | inactive |
| CG11178 | 1 | 6.59 | 14.9 | 6677 | 6258 | inactive |
| RASSF8 | 1 | 2.66 | 4.41 | 6314 | 6508 | inactive |
| RASSF8 | 2 | 1.14 | 4.22 | 6578 | 6499 | inactive |
| GckIII | 1 | 7.63 | 16.7 | 6909 | 3944 | inactive |
| CG12307 | 1 | 5.94 | 10.7 | 5941 | 6222 | inactive |
| Xrp1 | 1 | 0.93 | 0.36 | 5393 | 5316 | inactive |
| Xrp1 | 2 | 8.92 | 10.8 | 5528 | 5187 | inactive |
| CG12491 + CG34105 | 1 | 1.22 | 0.67 | 6162 | 5482 | inactive |
| CG12491 + CG34105 | 2 | 4.49 | 7.46 | 6500 | 6796 | inactive |
| CG12491 + CG34105 | 3 | 3.23 | 2.14 | 6092 | 5983 | inactive |
| fmt | 1 | 5.9 | 4.35 | 6200 | 6488 | inactive |
| CG3919 | 1 | 3.84 | 3.93 | 6842 | 6711 | inactive |
| CG9101 | 1 | 3.38 | 2.45 | 6187 | 6952 | inactive |
| CG9101 | 2 | 7.3 | 7.75 | 6139 | 6479 | inactive |
| nopo | 1 | 9.5 | 10.4 | 6029 | 5592 | inactive |
| CG10914 | 1 | 3.12 | 17.6 | 6800 | 6072 | inactive |
| Irp-1B | 1 | 4.28 | 14.9 | 6403 | 6881 | inactive |
| Irp-1B | 2 | 1.21 | 2 | 6760 | 6806 | inactive |
| Fnta | 1 | 14.5 | 9.44 | 5977 | 2669 | inactive |
| Fnta | 2 | 21.4 | 8.1 | 5693 | 5542 | inactive |
| Ilp3 | 1 | 4.92 | 3.18 | 6202 | 6602 | inactive |
| eIF3d2 | 1 | 13.5 | 17.6 | 6384 | 6707 | inactive |
| RIOK2 | 1 | 6.81 | 7.96 | 5464 | 4259 | inactive |
| CG16820 | 1 | 20.8 | 27 | 6522 | 5578 | inactive |
| chif | 1 | 10.8 | 4.92 | 6233 | 5849 | inactive |
| Dyb | 1 | 2.07 | 2.86 | 6266 | 6373 | inactive |
| Dyb | 2 | 0.43 | 16.2 | 6113 | 2889 | inactive |
| Dyb | 3 | 4.6 | 7.23 | 6285 | 5322 | inactive |
| CG33303 | 1 | 6.16 | 4.08 | 5339 | 6182 | inactive |
| bdwf | 1 | 5.85 | 7.79 | 6788 | 6879 | inactive |
| CG15439 | 1 | 1.42 | 4.45 | 7898 | 6946 | inactive |
| CG15439 | 2 | 3.78 | 2.53 | 6607 | 6285 | inactive |
| Ppat-Dpck | 1 | 0.2 | 2.82 | 6090 | 5789 | inactive |

Ordered by “cell count, replicate 1” (ascending): 5 of the entries above
| target gene | dsRNA no. | infection score, replicate 1 | infection score, replicate 2 | cell count, replicate 1 | cell count, replicate 2 | outcome |
| --- | --- | --- | --- | --- | --- | --- |
| RIOK2 | 1 | 6.81 | 7.96 | 5464 | 4259 | inactive |
| Ilp3 | 1 | 4.92 | 3.18 | 6202 | 6602 | inactive |
| chif | 1 | 10.8 | 4.92 | 6233 | 5849 | inactive |
| eIF3d2 | 1 | 13.5 | 17.6 | 6384 | 6707 | inactive |
| CG16820 | 1 | 20.8 | 27 | 6522 | 5578 | inactive |
